Anti-infective test results gathered from many reports (values: NIAID ChemDB through PubChem).

All rows: tests in culture; organism: HIV-1

ECn: concentration that inhibits the pathogen or its effect by n%. Blank or dashed fields: not listed here. Neighbouring rows are from separate reports.

structure	method	endpoint	cell line	changes	strain	conditions	result
Nc1nc(=O)n([C@H]2C=C[C@@H](CO)O2)cc1F	p24	EC50	PBMC	RT-T69SSS L210W T215Y	XM-T69SSS		<6.6 µM
Cc1cc(-c2ccc(C#N)cc2)cc(C)c1Oc1ccnc(S(=O)(=O)C(C)C(=O)Nc2ccc(Cl)cc2)n1	MTT	EC50	MT-4	Y188L	IIIB		1.002 µM
CC(C)C1=C2C3CCC4[C@@]5(C)CC[C@H](OC(=O)CC(C)(C)C(=O)O)C(C)(C)C5CC[C@@]4(C)[C@]3(C)CC[C@@]2(NC(=O)N2CCC(N(C)C(=O)OC(C)(C)C)CC2)CC1=O	RT activity	EC50	MT-2		IIIB	30% human serum	<0.199 µM
O=C(O)C1=CC(=C(c2ccc(O)c(C(=O)O)c2)c2ccc(O)c(C(=O)O)c2)C=CC1=O	cytopathic effect	EC50	MT-4				5 µM
COc1ccc(/C=N/NC(=O)Cn2nc(-c3ccccc3)c3c2-c2ccccc2S(=O)(=O)N3C)cc1	RT activity	EC50	PBMC		LAV-1		17.1 µM
CC(C)C1=C2C3CCC4[C@@]5(C)CC[C@H](OC(=O)CC(C)(C)C(=O)O)C(C)(C)C5CC[C@@]4(C)[C@]3(C)CC[C@@]2(NC(=O)OCC2CCCN(C)C2)CC1=O	RT activity	EC50	MT-2		IIIB	30% human serum	<0.199 µM
Cc1occc1C(=S)Nc1ccc(Cl)c(C(=O)OCC2CC2)c1	cytopathic effect / XTT	EC50	CEM + CEM-SS	RT-V106A	NL4-3		1.1 µM
CC(C)c1c(OC#CC2CC2)c2cc(Cl)ccc2[nH]c1=O	β-galactosidase	EC50	HeLa + HeLa-MAGI	RT-K103N Y181C	NNRTI-resistant (RT K103N Y181C)		0.62 µM
Cc1cc(-c2ccc(C#N)cc2)cc(C)c1Oc1ccnc(S(=O)(=O)CC(=O)Nc2ccc(F)cc2)n1	MTT	EC50	MT-4		IIIB		0.023 µM
Cc1cc(Br)cc(C)c1Oc1ncc(N)c(Nc2ccc(C#N)cc2)n1	MTT	EC50	MT-4		RES056		4.8 µM
CCN(CC)c1ccc(/C=N/NC(=O)Cn2nc(-c3ccccc3)c3c2-c2ccccc2S(=O)(=O)N3C)cc1	RT activity	EC50	PBMC		LAV-1		>100 µM
CC(C)[C@H](NC(=O)OCc1ccccn1)C(=O)N[C@@H](Cc1ccccc1)[C@@H](O)C[C@H](Cc1ccccc1)NC(=O)OCc1cccnc1	p24	EC50	MT-4	PR-M46I L63P	NL4-3		<0.8 µM
CC(=O)COc1cc(NC(=S)OC(C)C)ccc1Cl	cytopathic effect / XTT	EC50	CEM + CEM-SS		RF		1.18 µM
Cc1nnc(NC(=O)N[C@@]23CC[C@]4(C)C(CCC5[C@@]6(C)CC[C@H](OC(=O)CC(C)(C)C(=O)O)C(C)(C)C6CC[C@]54C)C2=C(C(C)C)C(=O)C3)o1	RT activity	EC50	MT-2		IIIB	30% human serum	<0.199 µM
Cc1ccc(-n2nc(-c3ccc(C)[nH]c3=O)cc2-c2ccccc2)c(C)c1	luminescence	EC50	TZM-bl		UG070		35.89 µM
Nc1nc2c(ncn2[C@H]2CO[C@@H](CO)O2)c(=O)[nH]1	cytopathic effect / XTT	EC50	MT-2	RT-K65R			4 µM
CC(=O)Nc1ccc(/C=N/NC(=O)Cn2nc(-c3ccccc3)c3c2-c2ccccc2S(=O)(=O)N3C)cc1	RT activity	EC90	PBMC		LAV-1		>100 µM
Cc1ccsc1C(=S)Nc1ccc(Cl)c(/C=N/OC(C)C)c1	cytopathic effect / XTT	EC50	CEM + CEM-SS		IIIB		0.07 µM
C[Si](C)(CCCn1cnc2c(N)ncnc21)O[Si](C)(C)CCCn1cnc2c(N)ncnc21	MTT	EC50	MT-2		IIIB		86 µM
COc1ccc(-n2nc(-c3ccc(C)[nH]c3=O)cc2-c2ccccc2)cc1	luminescence	EC50	TZM-bl		VB59		114 µM
Cc1cc(-c2ccc(C#N)cc2)cc(C)c1Oc1ccnc(S(=O)(=O)CC(=O)Nc2ccc(Br)cc2)n1	MTT	EC50	MT-4		RES056		4.999 µM
CCc1ccccc1-n1nc(-c2ccc(C)[nH]c2=O)cc1-c1ccccc1	luminescence	EC50	TZM-bl		UG070		>28.17 µM
Cc1cc(-c2ccc(C#N)cc2)cc(C)c1Oc1ccnc(S(=O)(=O)C(C)C(=O)Nc2ccc(C#N)cc2)n1	MTT	EC50	MT-4	Y181C	IIIB		0.242 µM
Cc1ccc(C(=O)Nc2ccc(S(=O)(=O)O)c3cc(S(=O)(=O)O)cc(S(=O)(=O)O)c23)cc1NC(=O)c1cccc(NC(=O)Nc2cccc(C(=O)Nc3cc(C(=O)Nc4ccc(S(=O)(=O)O)c5cc(S(=O)(=O)O)cc(S(=O)(=O)O)c45)ccc3C)c2)c1	cytopathic effect	EC50	HuT-78				18 µM
Cc1cc(C)c(Oc2ncc(NC(=O)C(F)(F)F)c(Nc3ccc(C#N)cc3)n2)c(C)c1	MTT	EC50	MT-4		IIIB		0.039 µM
CN(C)c1ccc(/C=N/NC(=O)Cn2nc(-c3ccccc3)c3c2-c2ccccc2S(=O)(=O)N3C)cc1	RT activity	EC50	PBMC		LAV-1		>100 µM
C#CCOCn1c(Cc2ccccc2)c(CF)c(=O)[nH]c1=O	MTT	EC50	MT-4	EFV:K103R+V179D+P225H	IIIB		>100 µM
Nc1ncnc2c1ncn2[C@@H]1O[C@H](OCP(=O)(O)O)C=C1F	cytopathic effect	EC50	MT-2	RT-M184V			9.84 µM
Cc1cc(-c2ccc(C#N)cc2)cc(C)c1Oc1ccnc(S(=O)(=O)CC(=O)NCc2ccc(C#N)cc2)n1	MTT	EC50	MT-4		IIIB		1.28 µM
COc1ccnc2[nH]cc(C(=O)C(=O)N3C4CCC3CN(C(=O)c3ccccc3)C4)c12	luciferase	EC50	TZM-bl		QH0692		1.2 µM
N#Cc1ccc(Nc2nc(Oc3c(Br)cc(Br)cc3Br)ncc2[N+](=O)[O-])cc1	MTT	EC50	MT-4		RES056		>20 µM
CC=CCOc1cc(NC(=S)c2ccoc2C)ccc1OC	cytopathic effect / XTT	EC50	CEM + CEM-SS	RT-D67N K70R T215Y K219Q	4xAZT(RT-D67N K70R T215Y K219Q)		0.03 µM
N#Cc1ccc(Nc2nc(Oc3c(Cl)cccc3Cl)ncc2N)cc1	MTT	EC50	MT-4		RES056		>33 µM
Cc1occc1C(=S)Nc1ccc(Cl)c(/C=N/OC(C)(C)C)c1	cytopathic effect / XTT	EC50	CEM + CEM-SS	RT-D67N K70R L100I T215Y K219Q	4xAZT/L100I(RT-D67N K70R T215Y K219Q L100I)		1 µM
Cc1cn([C@H]2C[C@H](N=[N+]=[N-])[C@@H](CO)O2)c(=O)[nH]c1=O	luminescence	EC50	TZM-bl		VB59		0.03 µM
C=CCOc1cc(NC(=S)c2ccoc2C)ccc1OC	cytopathic effect / XTT	EC50	CEM + CEM-SS		RF		0.08 µM
Nc1nc(NC2CC2)c2ncn([C@H]3C=C[C@@H](CO)C3)c2n1	p24	EC90	MT-4		NL-XM WT		1.9 µM
CC(C)C1=C2C3CCC4[C@@]5(C)CC[C@H](OC(=O)CC(C)(C)C(=O)O)C(C)(C)C5CC[C@@]4(C)[C@]3(C)CC[C@@]2(NC(=O)Cc2ccccc2)CC1=O	RT activity	EC50	MT-2		IIIB	30% human serum	<0.199 µM
Cc1cc(Br)cc(C)c1Oc1ncc([N+](=O)[O-])c(Nc2ccc(C#N)cc2)n1	MTT	EC50	MT-4		RES056		>202.3 µM
C=C(C)COCn1c(Cc2ccccc2)c(CO)c(=O)[nH]c1=O	MTT	EC50	MT-4	K103N + Y181C	IIIB		>20 µM
Nc1ccn([C@@H]2CC[C@H](CO)O2)c(=O)n1	syncytia	EC50	MT-4		RF		0.07 µM
C[Si](O)(O[Si](C)(CCCn1cnc2c(N)ncnc21)c1ccccc1)c1ccccc1	MTT	EC50	MT-2		IIIB		12 µM
CN1c2c(-c3ccccc3)nn(CC(=O)N/N=C/c3cccc(Cl)c3)c2-c2ccccc2S1(=O)=O	RT activity	EC50	PBMC		LAV-1		>100 µM
Cc1c(OCC2CCC2)c2cc(F)ccc2[nH]c1=O	β-galactosidase	EC50	HeLa + HeLa-MAGI	RT-K103N Y181C	NNRTI-resistant (RT K103N Y181C)		>2 µM
C[Si](C)(CCCn1ccc2ccccc21)O[Si](C)(C)CCCn1ccc2ccccc21	MTT	EC50	MT-2		IIIB		1 µM
CC(C)C1=C2C3CCC4[C@@]5(C)CC[C@H](OC(=O)CC(C)(C)C(=O)O)C(C)(C)C5CC[C@@]4(C)[C@]3(C)CC[C@@]2(NC(=O)C2CCCCC2)CC1=O	RT activity	EC50	MT-2		IIIB	30% human serum	<0.199 µM
CCc1c(Cc2cc(C)cc(C)c2)n(Cc2ccc(I)cc2)c(=O)[nH]c1=O	MTT	EC50	MT-4				0.06 µM
Cc1cc(-c2ccc(C#N)cc2)cc(C)c1Oc1ccnc(S(=O)(=O)CC(=O)Nc2ccc(Cl)cc2)n1	MTT	EC50	MT-4	Y188L	IIIB		0.938 µM
CN1c2c(-c3ccccc3)nn(CC(=O)N/N=C/c3ccc(Cl)cc3)c2-c2ccccc2S1(=O)=O	RT activity	EC90	PBMC		LAV-1		>100 µM
Cc1cc(/C=C/C#N)cc(C)c1Oc1ccnc(S(=O)(=O)CC(=O)Nc2ccc(Cl)cc2)n1	MTT	EC50	MT-4		RES056		0.228 µM
Cc1occc1C(=S)Nc1ccc(Cl)c(C(=O)OC(C)C)c1	cytopathic effect / XTT	EC50	CEM + CEM-SS		IIIB		0.01 µM
Cn1cc(NC(=O)Nc2cc(C(=O)Nc3cc(C(=O)Nc4ccc(S(=O)(=O)O)c5cc(S(=O)(=O)O)ccc45)n(C)c3)n(C)c2)cc1C(=O)Nc1cc(C(=O)Nc2ccc(S(=O)(=O)O)c3cc(S(=O)(=O)O)ccc23)n(C)c1	cytopathic effect / XTT	EC50	MT-4		6R(AZT)		7.2 µM
Nc1nc(N)c2ncn([C@H]3CO[C@@H](CO)O3)c2n1	cytopathic effect / XTT	EC50	MT-2	RT-A98S F116Y Q151M T215Y			92 µM
COc1cc([N+](=O)[O-])c(S(=O)(=O)[O-])cc1N=N/C(=N\Nc1cc(S(=O)(=O)[O-])c([N+](=O)[O-])cc1OC)C(=O)Nc1ccccc1	p24	EC50	MT-2		SF2 R5X4		22.64 µM
Cc1ccc(-n2nc(-c3ccc(C)[nH]c3=O)cc2-c2ccccc2)cc1	luminescence	EC50	TZM-bl		UG070		102 µM
N#Cc1ccc(Nc2nc(Oc3c(Cl)cc(Cl)cc3Cl)ncc2N)cc1	MTT	EC50	MT-4		RES056		2.8 µM
C#CCOCn1c(Cc2ccccc2)c(CO)c(=O)[nH]c1=O	MTT	EC50	MT-4	EFV:K103R+V179D+P225H	IIIB		>100 µM
C=CCO/N=C/c1cc(NC(=S)c2ccoc2C)ccc1Cl	cytopathic effect / XTT	EC50	CEM + CEM-SS	RT-K101E	NL4-3		0.9 µM
CC(C)C1=C2C3CCC4[C@@]5(C)CC[C@H](OC(=O)CC(C)(C)C(=O)O)C(C)(C)C5CC[C@@]4(C)[C@]3(C)CC[C@@]2(NC(=O)c2nccn2C)CC1=O	RT activity	EC50	MT-2		IIIB	30% human serum	<0.199 µM
C=CCOCn1c(Cc2ccccc2)c(CF)c(=O)[nH]c1=O	MTT	EC50	MT-4	K103N + Y181C	IIIB		>100 µM
CC(C)C1=C2C3CCC4[C@@]5(C)CC[C@H](OC(=O)CC(C)(C)C(=O)O)C(C)(C)C5CC[C@@]4(C)[C@]3(C)CC[C@@]2(NC(=O)OCC2CCN(C)C2)CC1=O	RT activity	EC50	MT-2		IIIB	30% human serum	<0.199 µM
Cc1cc(C#N)cc(C)c1Oc1ccnc(S(=O)(=O)CC(=O)Nc2ccc(C#N)cc2)n1	RT activity / fluorescence	EC50	MT-4	F227L V106A	IIIB		0.127 µM

The last 9 rows once more:

structure,method,endpoint,cell line,changes,strain,conditions,result
COc1cc([N+](=O)[O-])c(S(=O)(=O)[O-])cc1N=N/C(=N\Nc1cc(S(=O)(=O)[O-])c([N+](=O)[O-])cc1OC)C(=O)Nc1ccccc1,p24,EC50,MT-2,,SF2 R5X4,,22.64 µM
Cc1ccc(-n2nc(-c3ccc(C)[nH]c3=O)cc2-c2ccccc2)cc1,luminescence,EC50,TZM-bl,,UG070,,102 µM
N#Cc1ccc(Nc2nc(Oc3c(Cl)cc(Cl)cc3Cl)ncc2N)cc1,MTT,EC50,MT-4,,RES056,,2.8 µM
C#CCOCn1c(Cc2ccccc2)c(CO)c(=O)[nH]c1=O,MTT,EC50,MT-4,EFV:K103R+V179D+P225H,IIIB,,>100 µM
C=CCO/N=C/c1cc(NC(=S)c2ccoc2C)ccc1Cl,cytopathic effect / XTT,EC50,CEM + CEM-SS,RT-K101E,NL4-3,,0.9 µM
CC(C)C1=C2C3CCC4[C@@]5(C)CC[C@H](OC(=O)CC(C)(C)C(=O)O)C(C)(C)C5CC[C@@]4(C)[C@]3(C)CC[C@@]2(NC(=O)c2nccn2C)CC1=O,RT activity,EC50,MT-2,,IIIB,30% human serum,<0.199 µM
C=CCOCn1c(Cc2ccccc2)c(CF)c(=O)[nH]c1=O,MTT,EC50,MT-4,K103N + Y181C,IIIB,,>100 µM
CC(C)C1=C2C3CCC4[C@@]5(C)CC[C@H](OC(=O)CC(C)(C)C(=O)O)C(C)(C)C5CC[C@@]4(C)[C@]3(C)CC[C@@]2(NC(=O)OCC2CCN(C)C2)CC1=O,RT activity,EC50,MT-2,,IIIB,30% human serum,<0.199 µM
Cc1cc(C#N)cc(C)c1Oc1ccnc(S(=O)(=O)CC(=O)Nc2ccc(C#N)cc2)n1,RT activity / fluorescence,EC50,MT-4,F227L V106A,IIIB,,0.127 µM